A mixed list of measured activities; the numbers were collected in NIAID ChemDB.

All rows: tests on isolated targets; protein: Cathepsin D; measure: IC50

Conditions beyond the fields shown may differ between rows.

compound | method | value
CC(C)[C@H](NC(=O)N(C)Cc1ccccn1)C(=O)N[C@@H](Cc1ccccc1)C(=O)C(F)(F)[C@H](Cc1ccccc1)NC(=O)[C@@H](NC(=O)N(C)Cc1ccccn1)C(C)C |  | 77 µM
CC1(C)S[C@H]([C@H](NC(=O)Cc2ccccc2)C(=O)NCc2ccccc2)N[C@H]1C(=O)NCCNC(=O)[C@@H]1N[C@@H]([C@H](NC(=O)Cc2ccccc2)C(=O)NCc2ccccc2)SC1(C)C |  | >100 µM
CC(C)[C@H](NC(=O)OCc1ccccc1)C(=O)N[C@@H](Cc1ccccc1)C(=O)C(F)(F)[C@H](Cc1ccccc1)NC(=O)[C@@H](NC(=O)OCc1ccccc1)C(C)C |  | >100 µM
CSC[C@H](NC(=O)COc1cccc2cnccc12)C(=O)N[C@@H](Cc1ccccc1)[C@H](O)C(=O)N1CSC(C)(C)[C@H]1C(=O)NC(C)(C)C | HPLC | 23 µM
CCCCNC(=O)[C@H](C)C[C@H](O)[C@H](CC1CCCCC1)NC(=O)[C@@H](NC(=O)[C@H](CCC(N)=O)NC(=O)OC(C)(C)C)C(C)C |  | 0.17 µM
CC(C)(C)NC(=O)[C@H]1N(C(=O)[C@@H](O)[C@H](Cc2ccccc2)NC(=O)[C@H](CC(N)=O)NC(=O)COc2cccc3cnccc23)CSC1(C)C | HPLC | 100 µM
CCCCNC(=O)[C@H](C)C[C@H](O)[C@H](CC1CCCCC1)NC(=O)[C@@H](NC(=O)[C@H](CCCN)NC(=O)OCc1ccccc1)C(C)C |  | 96 µM
CC(C)(C)NC(=O)[C@@H]1CCCN1C(=O)[C@@H](O)[C@H](Cc1ccccc1)NC(=O)[C@H](CC(N)=O)NC(=O)OCc1ccccc1 | HPLC | 100 µM
CCCCNC(=O)[C@H](C)C[C@H](O)[C@H](CC1CCCCC1)NC(=O)[C@@H](NC(=O)[C@H](Cc1cccc2ccccc12)NC(=O)OC(C)(C)C)C(C)C |  | 1.5 µM
CC(C)(C)OC(=O)N[C@@H](Cc1ccccc1)[C@H](O)CNC[C@@H](O)[C@H](Cc1ccccc1)NC(=O)C(C)(O)C(C)(C)C | absorbance | >31 µM
CC(C)[C@H](NS(=O)(=O)CCc1ccccn1)C(=O)N[C@@H](Cc1ccccc1)C(=O)C(F)(F)[C@H](Cc1ccccc1)NC(=O)[C@@H](NS(=O)(=O)CCc1ccccn1)C(C)C |  | >100 µM
CC(C)(C)NC(=O)[C@H]1N(C(=O)[C@@H](O)[C@H](Cc2ccccc2)NC(=O)[C@H](CC(N)=O)NC(=O)COc2cccc(-c3ccccc3)c2)CSC1(C)C | HPLC | 2.9 µM
CC(C)[C@H](NC(=O)CCc1ccccn1)C(=O)N[C@@H](Cc1ccccc1)C(=O)C(F)(F)[C@H](Cc1ccccc1)NC(=O)[C@H](NC(=O)CCc1ccccn1)C(C)C |  | >100 µM
CC(C)CN(C[C@@H](O)[C@H](Cc1ccccc1)NC(=O)O[C@H]1CCOC1)S(=O)(=O)c1ccc(N)cc1 |  | 15.2 µM

Repeating the final 2 entries:

| compound | method | value |
|---|---|---|
| CC(C)[C@H](NC(=O)CCc1ccccn1)C(=O)N[C@@H](Cc1ccccc1)C(=O)C(F)(F)[C@H](Cc1ccccc1)NC(=O)[C@H](NC(=O)CCc1ccccn1)C(C)C |  | >100 µM |
| CC(C)CN(C[C@@H](O)[C@H](Cc1ccccc1)NC(=O)O[C@H]1CCOC1)S(=O)(=O)c1ccc(N)cc1 |  | 15.2 µM |

ICn: concentration for n% inhibition. An empty or dashed field is not shown.